Anti-infective test results gathered from many reports (values: NIAID ChemDB through PubChem).

All rows: whole-cell or culture tests; species: Measles virus; measure: EC50

Blank or dashed fields: not listed here. ECn: concentration that inhibits the pathogen or its effect by n%. Rows are shuffled and stem from different studies.

smiles	cell line	read by	strain or isolate	value
Nc1ncnc2c1ncn2[C@@H]1CC[C@@H](O)[C@H]1O	CV-1	neutral red	Halonen	<0.1 µg/mL
CSc1nsc(-c2cccc(Cl)c2)c1C#N	HEP-2	plaque count	Edmonston	>10 µM
Nc1nc(=O)c2nc(-c3ccccc3)n([C@@H]3O[C@H](CO)[C@@H](O)[C@H]3O)c2c(=O)[nH]1	CV-1	neutral red		0.5 µM
CCCc1cc(=O)oc2c3c(c4c(c12)OC(C)(C)[C@H](O)[C@@H]4O)O[C@H](C)[C@@H](C)[C@@H]3O	CV-1	cytopathic effect	CC	4 µg/mL
Nc1ncnc2c1ncn2[C@H]1C[C@@H](CO)[C@H](O)[C@@H]1O	VERO	cytopathic effect		≥200 µg/mL
CCCc1cc(=O)oc2cc(OS(=O)(=O)c3ccc(C)cc3)cc(O)c12	CV-1	cytopathic effect	CC	1 µg/mL
COc1cc(/C=N/N=C(/N)NO)cc(OC)c1OC.Cc1ccc(S(=O)(=O)O)cc1	VERO	plaque count		1.5 µM
CCCc1cc(=O)oc2cc(OC(=O)C(C)(C)C)c3c(c12)OC(C)(C)C=C3	CV-1	virus yield	Chicago-1	<0.3 µg/mL
N#Cc1c(Cl)nsc1Cl	HEP-2	plaque count	Edmonston	>4 µM
CCCc1cc(=O)oc2cc(OS(=O)(=O)c3ccc(C)cc3)cc(OS(=O)(=O)c3ccc(C)cc3)c12	CV-1	cytopathic effect	Chicago	1 µg/mL
CCNc1nc(=O)c2ncn([C@@H]3O[C@H](CO)[C@@H](O)[C@H]3O)c2c(=O)[nH]1	CV-1	cytopathic effect		2 µM
COc1ccc(/C=N/N=C(\N)NO)cc1.Cc1ccc(S(=O)(=O)O)cc1	VERO	plaque count		>50 µM
N#Cc1csnc1-c1ccccc1	HEP-2	plaque count	Edmonston	>100 µM
Nc1ncnc2c1ncn2[C@@H]1C[C@H](CO)[C@@H](O)[C@H]1O	VERO	cytopathic effect		2 µg/mL
Nc1ncnc2c1ncn2[C@H]1C[C@@H](S)[C@H](O)[C@@H]1O	CV-1	cytopathic effect		>100 µg/mL
CCCc1cc(=O)oc2c3c(c4c(c12)OC(C)(C)C=C4)O[C@H](C)[C@H](C)C3=O	CV-1	cytopathic effect	Chicago-1	9 µg/mL
CSc1nsc(-c2ccccc2Cl)c1C#N	HEP-2	plaque count	Edmonston	>5 µM
Nc1ncnc2c1ncn2[C@@H]1C[C@H](N)[C@@H](O)[C@H]1O	CV-1	cytopathic effect	CC	30 µg/mL
CCCCOc1ccc(-c2snc(SC)c2C#N)cc1	HEP-2	plaque count	Edmonston	10 µM
CC(C)CS[C@H]1C[C@@H](n2cnc3c(N)ncnc32)[C@H](O)[C@@H]1O	HEL	cytopathic effect	DAVIS	>100 µg/mL
Nc1ncnc2c1ncn2[C@@H]1C=C[C@@H](O)[C@H]1O	CV-1	neutral red	BIL	>10 µg/mL
COc1ccc(OC)c(/C=N/N=C(/N)NO)c1.Cc1ccc(S(=O)(=O)O)cc1	VERO	plaque count		>50 µM
CSc1nsc(-c2cccs2)c1C#N	HEP-2	plaque count	Edmonston	>6 µM

The last 2 rows once more:

smiles | cell line | read by | strain or isolate | value
COc1ccc(OC)c(/C=N/N=C(/N)NO)c1.Cc1ccc(S(=O)(=O)O)cc1 | VERO | plaque count |  | >50 µM
CSc1nsc(-c2cccs2)c1C#N | HEP-2 | plaque count | Edmonston | >6 µM